From patent US11389455B2, “Inhibitors of HIV-1 integrase multimerization” (Institute for Cancer Research, priority 2017, dated 2022)

Test system: HeLa cells
Settings: LD50 vs concerted integration IC50

| Compound | separation (window) between inhibition of concerted integration and toxicity |
| --- | --- |
| CCc1ccc(-c2nc3c(=O)n(C)c(=O)nc-3n(CC)n2)cc1 [Formula I-13] | 10 fold |
| O=C(CCCCCNc1ccc([N+](=O)[O-])c2nonc12)ON1C(=O)CCC1=O [II-4] | ~10 fold |
